Laboratory results published in patent US4447356A, “Conotoxins” (dated 1984).

Columns and labels:
[1] = test system: cutaneous pectoris muscle of small grass frogs (Rana pipiens); assay: isolated neuromuscular preparation, physiological mode of action; settings: frog nerve-muscle preparation; for inhibition of nerve or muscle action potential propagation: 15°-20° C., at the toxin concentrations used; for site of action: various conditions of stimulation
[2] = test system: cutaneous pectoris muscle of small grass frogs (Rana pipiens); settings: frog nerve-muscle preparation

Structure (SMILES)	inhibition of nerve or muscle action potential propagation [1]	site of action [1]	inhibition of nerve or muscle action potential propagation ([2]; 15°-20° C., at the toxin concentrations used)	site of action ([2]; various conditions of stimulation)
C[C@@H]1NC(=O)[C@@H]2CCCN2C(=O)[C@H](Cc2c[nH]cn2)NC(=O)[C@@H]2CSSC[C@@H](C(N)=O)NC(=O)[C@H](CO)NC(=O)[C@H](Cc3ccccc3)NC(=O)[C@H](Cc3c[nH]cn3)NC(=O)[C@H](CCCCN)NC(=O)CNC(=O)[C@H](CSSC[C@H](NC(=O)[C@@H](N)CCC(=O)O)C(=O)N2)NC1=O	no detectible inhibition	act at the muscle end plate region		
C[C@@H]1NC(=O)[C@@H]2CCCN2C(=O)[C@H](CC(N)=O)NC(=O)[C@@H]2CSSC[C@@H](C(N)=O)NC(=O)[C@H](CO)NC(=O)[C@H](Cc3ccc(O)cc3)NC(=O)[C@H](Cc3c[nH]cn3)NC(=O)[C@H](CCCNC(=N)N)NC(=O)CNC(=O)[C@H](CSSC[C@H](NC(=O)[C@@H](N)CCC(=O)O)C(=O)N2)NC1=O	no detectible inhibition	act at the muscle end plate region		
C[C@@H]1NC(=O)[C@@H]2CCCN2C(=O)[C@H](CC(N)=O)NC(=O)[C@@H]2CSSC[C@@H](C(=O)NCC(=O)N[C@@H](CCCCN)C(N)=O)NC(=O)[C@H](CO)NC(=O)[C@H](Cc3ccc(O)cc3)NC(=O)[C@H](Cc3c[nH]cn3)NC(=O)[C@H](CCCNC(=N)N)NC(=O)CNC(=O)[C@H](CSSC[C@H](NC(=O)[C@@H](N)CCC(=O)O)C(=O)N2)NC1=O			no detectible inhibition	act at the muscle end plate region

Like-named read-outs stand apart in the source and are kept apart here.
